Target: A/South Carolina/1/1918 (H1N1) hemagglutinin ectodomain (Influenza A virus A/South …)

Binder	fold improvement in affinity against HB80	fold improvement in affinity against HB36	fold increase in apparent binding affinity against HB36
HB80 [change] (designed binder) MASTRGSGRPWDFSENLAFELALAFTNKDTPDRWANVAQYVSGRTPEEVKKHYEILVEDIKYIESGKVPFPNYRTTGGNMKTDEKRFRNLKIRLE	> 10 fold		
HB80 [change] (designed binder) MASTRGSGRPWDFSENLAFELALAFVNKDTPDRWANVAQYVSGRTPEEVKKHYEILVEDIKYIESGKVPFPNYRTTGGNMKTDEKRFRNLKIRLE	> 10 fold		
HB80 [change] (designed binder) MASTRGSGRPWDFSENLAFELALAFMNKDTPDRWAKVAQYVSGRTPEEVKKHYEILVEDIKYIESGKVPFPNYRTTGGNMKTDEKRFRNLKIRLE	> 10 fold		
HB36 [change] (designed binder) MSNAMDGQQLNRLLLEWIGAWDPFGLGKDAYDVEAEAVLQAVYETEDAFDLAMRIMWIYTFAFNRPIPFPHAQKLARRLLELKQAASSPLPLE		> 10 fold	25 fold
HB36.2 ([change]) (designed binder) MSNAMDGQQLNRLLLEWIGAWDPFGLGKDAYDVEAEAVLQAVYETEDAFDLAMRIMWIYVFAFNRPIPFPHAQKLARRLLELKQAASSPLPLE		> 10 fold	25 fold

Reference: patent publication US20150038408A1, “Polypeptides for treating and/or limiting influenza infection” (University of Washington, published 2015)
